Anti-infective test results gathered from many reports (values: NIAID ChemDB through PubChem).

All rows: enzyme or target tests; organism: HIV; target: Reverse transcriptase; measure: IC50

ICn: concentration for n% inhibition. Conditions beyond the fields shown may differ between rows. Blank or dashed fields: not listed here.

SMILES	changes	method	setting	result
CCN1c2ncc(CSc3cccc(OC)c3)cc2C(=O)Nc2c(C)cc(Cl)nc21	Y181C	RT activity		0.0593 µM
Nc1ncnc2c1ncn2[C@H]1CC[C@@H](COP(=O)(O)OP(=O)(O)OP(=O)(O)O)O1	RT-V75I F77L F116Y Q151M	nucleotide incorporation / radiometric		71 µM
CC(C)c1c(Cc2ccccc2)nc(SCC(=O)c2ccco2)[nH]c1=O		ELISA		0.43 µM
Cc1cc(Cc2ccc(Cl)c(Oc3cc(C#N)cc(C#N)c3)c2F)n[nH]c1=O	WT		40% human serum	0.007 µM
CCc1c(Cc2ccccc2)nc(SCC(=O)c2ccc(OC)cc2)[nH]c1=O		ELISA		1.06 µM
Nc1ccn([C@H]2CC[C@@H](COP(=O)(O)OP(=O)(O)OP(=O)(O)O)O2)c(=O)n1	RT-V75I F77L F116Y Q151M	nucleotide incorporation / radiometric		9.7 µM
Nc1ccn([C@H]2CC[C@@H](COP(=O)(O)OP(=O)(O)OP(=O)(O)OP(=O)(O)OC[C@@H]3CC[C@H](n4ccc(N)nc4=O)O3)O2)c(=O)n1	RT-M41L T215Y	nucleotide incorporation / radiometric		1.1 µM
S=C(Cc1ccccn1)NCCc1ccccc1	Y181I	radiometric		>100 µM
CCN1c2nc(Cl)ccc2NC(=O)c2cc(CSc3cccc(C)c3)cnc21	Y181C	RT activity		0.00463 µM
CC(C)OC(=O)c1cc(NC(=S)OC(C)C)ccc1Cl	Y181I	radiometric		71.3 µM
CC(C)c1c(Cc2cccc3ccccc23)nc(SCCc2ccccc2)[nH]c1=O		ELISA		482 µM
Nc1nc2c(ncn2[C@H]2CC[C@@H](COP(=O)(O)OP(=O)(O)NP(=O)(O)OP(=O)(O)OC[C@H]3O[C@@H](n4cnc5c(N)ncnc54)[C@H](O)[C@@H]3O)O2)c(=O)[nH]1	RT-D67N K70R	nucleotide incorporation / radiometric		>41 µM
S=C(Cc1ccccn1)NCc1ccccc1Cl	L100I	radiometric		>100 µM
CCN1c2nc(Cl)ccc2NC(=O)c2cc(CSc3ccccc3)cnc21	K103N	RT activity		6.23 µM
CNc1ccccc1C(=O)O[C@H]1[C@@H](O)[C@H](n2cnc3c(N)ncnc32)O[C@@H]1COP(=O)(O)OP(=O)(O)OP(=O)(O)OP(=O)(O)OC[C@@H]1CC[C@H](n2cnc3c(=O)[nH]c(N)nc32)O1	RT-M41L T215Y	nucleotide incorporation / radiometric		3.8 µM
CC(C)=CCN1Cc2cccc3[nH]c(=S)n(c23)C[C@@H]1C	RT-Y271S	nucleotide incorporation		67.5 µM
CCN1c2nc(Cl)ccc2NC(=O)c2cc(CSc3cccc(F)c3)cnc21	Y181C	RT activity		0.459 µM
S=C(CCc1ccccc1)Nc1ccc(Cl)cn1	L100I	radiometric		>100 µM
CCc1c(Cc2cccc3ccccc23)nc(SCCc2ccccc2)[nH]c1=O		ELISA		499 µM
Nc1ncnc2c1ccn2[C@H]1C[C@H](F)[C@@H](COP(=O)(O)OP(=O)(O)OP(=O)(O)O)O1	RT-W88G	nucleotide incorporation / radiometric		0.31 µM
CC(C)c1c(Cc2ccccc2)nc(SCC(=O)c2ccccc2)[nH]c1=O		ELISA		0.66 µM
CCN1c2ncc(CSc3ccccc3)cc2C(=O)N(C)c2c(C)cc(Cl)nc21	Y181C	RT activity		0.507 µM

The last 2 rows once more:

SMILES	changes	method	setting	result
CC(C)c1c(Cc2ccccc2)nc(SCC(=O)c2ccccc2)[nH]c1=O		ELISA		0.66 µM
CCN1c2ncc(CSc3ccccc3)cc2C(=O)N(C)c2c(C)cc(Cl)nc21	Y181C	RT activity		0.507 µM